The text below walks through data of patent publication US8299021B2, “Macrocyclic inhibitors of hepatitis C virus replication” (InterMune, Inc., priority 2005, dated 2012).

The chains behind the UniProt entries cited, without tags or fusion partners. Residues count along the entry.
UniProt P27958, 1027-1657 limits assumed: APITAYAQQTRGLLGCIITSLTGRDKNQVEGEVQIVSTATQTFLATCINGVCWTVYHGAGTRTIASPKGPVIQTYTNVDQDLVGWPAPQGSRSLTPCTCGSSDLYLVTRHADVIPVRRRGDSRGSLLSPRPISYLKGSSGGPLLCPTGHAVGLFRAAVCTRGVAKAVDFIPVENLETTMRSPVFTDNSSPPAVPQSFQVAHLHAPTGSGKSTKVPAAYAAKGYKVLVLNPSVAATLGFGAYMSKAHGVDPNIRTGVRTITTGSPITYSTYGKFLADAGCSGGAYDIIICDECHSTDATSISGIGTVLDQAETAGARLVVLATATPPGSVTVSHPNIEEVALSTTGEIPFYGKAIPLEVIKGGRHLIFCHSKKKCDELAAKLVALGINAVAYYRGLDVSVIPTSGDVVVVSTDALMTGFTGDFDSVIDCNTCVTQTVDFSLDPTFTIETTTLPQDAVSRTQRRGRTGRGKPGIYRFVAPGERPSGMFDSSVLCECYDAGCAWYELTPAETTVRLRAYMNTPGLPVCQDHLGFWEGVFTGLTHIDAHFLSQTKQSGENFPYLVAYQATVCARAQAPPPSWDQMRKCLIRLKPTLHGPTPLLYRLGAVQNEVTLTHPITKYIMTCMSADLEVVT

Each structure is given as a SMILES string.

The target in this assay is NS3-NS4 protease (full-length NS3/NS4A-2) (Hepatitis C virus genotype 1a, UniProt P27958). Nature of the assay: NS3-NS4 protease assay / NS3 inhibition assay (RETS1 substrate, fluorescence kinetic read). The assay is classed as biochemical. The note with it: read-out: NS3-NS4 IC50; Table 22.

Regarding `CC(C)(C)OC(=O)N[C@H]1CCCCC/C=C\[C@@H]2C[C@@]2(C(=O)NCc2cccs2)NC(=O)[C@@H]2CCCN2C1=O`, the IC50 (as a rule, the midpoint of a concentration-inhibition curve) is less than 1000 nM.
